For part of these data: This list holds what a sample rich in highest values left over. For part of these data: What follows is the remainder of the data, with few or none of the hits. The entries are a selection whose mix differs from that of the whole data set.
Key:
[1] = test system: Vero E6 infected with SARS-CoV-2; experiment: morphology score (similarity to uninfected cells); higher = more like uninfected cells; details: 10 µM; 24 h
[2] = test system: Vero E6 infected with SARS-CoV-2; experiment: inhibition of SARS-CoV-2 cytopathic effect; higher = more antiviral protection, active = above 15; details: 48 h
[3] = test system: Vero E6 infected with SARS-CoV-2; experiment: SARS-CoV-2 infection rate relative to infected DMSO; higher = more infection, active = 60 or less; details: 10 µM; 24 h

| SMILES | morphology score [1] | inhibition of SARS-CoV-2 cytopathic effect ([2]; 1 nM) | inhibition of SARS-CoV-2 cytopathic effect ([2]; 8.33 nM) | inhibition of SARS-CoV-2 cytopathic effect ([2]; 100 nM) | inhibition of SARS-CoV-2 cytopathic effect ([2]; 833.33 nM) | inhibition of SARS-CoV-2 cytopathic effect ([2]; 10000 nM) | SARS-CoV-2 infection rate [3] |
| --- | --- | --- | --- | --- | --- | --- | --- |
| N=C(N)NCCC[C@H](N)C(=O)NCC(=O)N[C@@H](CC(=O)O)C(=O)N[C@@H](CO)C(=O)O | 0.0886 | inactive: 2.15% | inactive: 2.3% | inactive: 8.92% | active: 16.3% | inactive: 4.7% | inactive: 97.5% |
| C[C@@H](N)C(=O)N[C@@H](CO)C(=O)N[C@H](C(=O)N[C@H](C(=O)N[C@H](C(=O)N[C@@H](CC(N)=O)C(=O)N[C@@H](Cc1ccc(O)cc1)C(=O)N[C@H](C(N)=O)[C@@H](C)O)[C@@H](C)O)[C@@H](C)O)[C@@H](C)O [adaptavir] | 0.151 | inactive: -1.5% | inactive: -0.88% | inactive: -1.41% | inactive: -0.86% | inactive: -1.27% | inactive: 93% |
| CC[C@H](C)[C@H](NC(=O)[C@H](CCC(=O)O)NC(=O)[C@H](CCC(=O)O)NC(=O)[C@H](Cc1ccccc1)NC(=O)[C@H](CC(=O)O)NC(=O)CNC(=O)[C@H](CC(N)=O)NC(=O)CNC(=O)CNC(=O)CNC(=O)CNC(=O)[C@@H]1CCCN1C(=O)[C@H](CCCNC(=N)N)NC(=O)[C@@H]1CCCN1C(=O)[C@H](N)Cc1ccccc1)C(=O)N1CCC[C@H]1C(=O)N[C@@H](CCC(=O)O)C(=O)N[C@@H](CCC(=O)O)C(=O)N[C@@H](Cc1ccc(O)cc1)C(=O)N[C@@H](CC(C)C)C(=O)O [bivalirudin] | -0.00364 | inactive: 0.25% | inactive: -0.71% | inactive: -2.7% | inactive: 2.08% | inactive: 2.93% | inactive: 102% |
